Each structure is given as a SMILES string. “And” between values parts separate entries of the source, which are not always exact repeats. Identical values can stand only once.

The subject of the first data set is Mtb20SOG. The class given is biochemical, Mycobacterium tuberculosis. To be noted: Table 2; Hu c-20S IC50 over Mtb20SOG IC50.
On to `CC[C@H]1CCCCN1C(=O)C[C@H](NC(=O)CCC(C)C)C(=O)N[C@@H](C)c1ncc(-c2ccc(F)cc2F)[nH]1` [CF-503213], for which the Selectivity is 136 and 153.

Regarding `CC(C)CCC(=O)N[C@@H](CC(=O)N1CCCCC1C(C)C)C(=O)N[C@@H](C)c1ncc(-c2ccc(F)cc2F)[nH]1` (stereo partly shown) [CF-503218], the Selectivity was 20 and 19.

`CC(C)CCC(=O)N[C@@H](CC(=O)N1CCCC[C@@H]1C)C(=O)N[C@@H](C)c1nc2c(F)cccc2[nH]1` [CF-503225]: the Selectivity is 197 and 143.

For `C[C@H](NC(=O)[C@H](CC(=O)N1CCCC[C@@H]1C)NC(=O)CCC(C)(C)C)c1nc2c(F)cccc2[nH]1` [CF-503227], the Selectivity was 61 and 80.

For the compound `C[C@H](NC(=O)[C@@H](N)CC(=O)N1CCC[C@@H]1c1ccccc1)c1ncc(-c2ccccc2F)[nH]1` [CF-503240], the Selectivity was 11.

As for `C[C@H](NC(=O)[C@H](CC(=O)N1CCC[C@@H]1c1ccccc1)Nc1nc2ccccc2o1)c1ncc(-c2ccccc2F)[nH]1` [CF-503242], the Selectivity is 22 and 30.

`CC[C@H]1CCCCN1C(=O)C[C@H](Nc1nc2ccccc2o1)C(=O)N[C@@H](C)c1nc2c(F)cccc2[nH]1` [CF-503321]: the Selectivity is 17 and 14.

For `CC[C@H]1CCCCN1C(=O)C[C@H](Nc1nc2ccc(C)cc2o1)C(=O)N[C@@H](C)c1nc2c(F)cccc2[nH]1` [CF-503360], the Selectivity amounted to 4.

As for `CC(C)C1CC1C(=O)N[C@@H](CC(=O)N1CCCC[C@@H]1C)C(=O)N[C@@H](C)c1nc2c(F)cccc2[nH]1` (stereo partly shown) [CF-503381], the Selectivity was 60 and 75.

On to `CC[C@H]1CCCCN1C(=O)C[C@H](NC(=O)[C@@H]1C[C@H]1c1ccccc1)C(=O)N[C@@H](C)c1nc2c(F)cccc2[nH]1` [CF-503382], for which the Selectivity came to 72.

Take `CC[C@H]1CCCCN1C(=O)C[C@H](Nc1nc(C(C)C)no1)C(=O)NCc1nc2c(F)cccc2[nH]1` [CF-503417]: the Selectivity was 3 and 2.

The compound `CC[C@H]1CCCCN1C(=O)C[C@H](Nc1nc2ccccc2s1)C(=O)N[C@@H](C)c1nc2c(F)cccc2[nH]1` [CF-503445] yielded a Selectivity of 1.

With `CC[C@H]1CCCCN1C(=O)C[C@H](NC(=O)N1CCOCC1)C(=O)N[C@@H](C)c1nc2c(F)cccc2[nH]1` [CF-503453], the Selectivity came to 1.

Take `CC[C@H]1CCCCN1C(=O)C[C@H](NC(=O)N1CCCCC1)C(=O)N[C@@H](C)c1nc2c(F)cccc2[nH]1` [CF-503454]: the Selectivity is listed as 4.

`CC[C@H]1CCCCN1C(=O)C[C@H](NC(=O)N(C)CC(C)C)C(=O)N[C@@H](C)c1nc2c(F)cccc2[nH]1` [CF-503457] yielded a Selectivity of 2.

On to `CC[C@H]1CCCCN1C(=O)C[C@H](NC(=O)OCc1ccccc1)C(=O)N[C@@H](C)c1nc2c(F)cccc2[nH]1` [CF-503461], for which the Selectivity is 85 and 109.

`CC(C)c1noc(N[C@@H](CC(=O)N2CCCC[C@@H]2C)C(=O)N[C@@H](C)c2ncc(-c3ccc(F)cc3F)[nH]2)n1` [CF-503477] registered a Selectivity of 1.

In turn, `C[C@H](NC(=O)[C@H](CC(=O)N1CCCC[C@@H]1C)NC(=O)[C@H]1C[C@@H]1c1ccccc1)c1nc2c(F)cccc2[nH]1` [drawing 477] gave a Selectivity of 74.

The data set is the same for the next values; noted with them: ratio IC50 (Human Constitutive) / IC50 (Mtb20SOG).
Take `CC(C)CCC(=O)N[C@@H](CC(=O)N1CCCC[C@@H]1C(F)(F)F)C(=O)N[C@@H](C)c1nc(-c2ccc(F)cc2F)c[nH]1` [CF-503212]: the Selectivity is 14.

In the case of `CC(C)CCC(=O)N[C@@H](CC(=O)N1CCCCCC1)C(=O)N[C@@H](C)c1nc(-c2ccc(F)cc2F)c[nH]1` [CF-503214], the Selectivity amounted to 15.

Regarding `CC[C@H]1CCCCN1C(=O)C[C@H](NC(=O)CCC(C)C)C(=O)N[C@@H](C)c1nc2ccccc2[nH]1` [CF-503216], the Selectivity is 50 43.

On to `CC[C@H]1CCCCN1C(=O)C[C@H](NC(=O)CCC(C)(C)C)C(=O)N[C@@H](C)c1nc2ccccc2[nH]1` [CF-503217], for which the Selectivity is reported as 54 11.

For `CC[C@H]1CCCCN1C(=O)C[C@H](NC(=O)CCC(C)C)C(=O)N[C@@H](C)c1nc2cc(F)cc(F)c2[nH]1` [CF-503219], the Selectivity is given as 5 5.

As for `CC[C@H]1CCCCN1C(=O)C[C@H](NC(=O)CCC(C)C)C(=O)N[C@@H](C)c1nc2c(F)cccc2[nH]1` [CF-503223], the Selectivity is reported as 379 308.

With `CC[C@H]1CCCCN1C(=O)C[C@H](NC(=O)CCC(C)C)C(=O)N[C@@H](C)c1nc2cc(F)c(F)cc2[nH]1` [CF-503229], the Selectivity worked out at 1.

On to `Cc1cc(C(=O)N[C@@H](CC(=O)N2CCCC[C@@H]2C)C(=O)N[C@@H](C)c2nc3c(F)cccc3[nH]2)no1` [CF-503274], for which the Selectivity is given as 103.

With `CC[C@H]1CCCCN1C(=O)C[C@H](NC(=O)CCc1ccccc1)C(=O)N[C@@H](C)c1nc2c(F)cccc2[nH]1` [CF-503291], the Selectivity is 377 565.

Consider `CCC1CCCCN1C(=O)CC(NC(=O)CCC(C)C)C(=O)NC1CCCC1c1ncc(-c2ccc(F)cc2F)[nH]1` (stereo not shown) [CF-503292], for which the Selectivity is 7.5 2 16 15.

In the case of `CC[C@H]1CCCCN1C(=O)C[C@H](NC(=O)NCc1ccccc1)C(=O)N[C@@H](C)c1nc2c(F)cccc2[nH]1` [CF-503304], the Selectivity is listed as 26 29.

For `CC[C@H]1CCCCN1C(=O)C[C@H](NC(=O)CC1CC1)C(=O)N[C@@H](C)c1nc2c(F)cccc2[nH]1` [CF-503318], the Selectivity stood at 150.

On to `CC[C@H]1CCCCN1C(=O)C[C@H](NC(=O)CC(F)(F)F)C(=O)N[C@@H](C)c1nc2c(F)cccc2[nH]1` [CF-503319], for which the Selectivity worked out at 13.

In the case of `CC[C@H]1CCCCN1C(=O)C[C@H](NC(=O)CCN(C)C)C(=O)N[C@@H](C)c1nc2c(F)cccc2[nH]1` [CF-503356], the Selectivity is 1.

Take `CC[C@H]1CCCCN1C(=O)C[C@H](Nc1nc2cc(C)ccc2o1)C(=O)N[C@@H](C)c1nc2c(F)cccc2[nH]1` [CF-503357]: the Selectivity is listed as 7.

Turning to `CC(NC(=O)C(CC(=O)N1CCCCC1C)NC(=O)C1CC1c1ccccc1)c1nc2c(F)cccc2[nH]1` (stereo not shown) [CF-503363], the Selectivity came out at 158.

For the compound `C[C@H](NC(=O)[C@H](CC(=O)N1CCCC1)NC(=O)CCc1ccccc1)C(=O)NCc1cccc2cn[nH]c12` [CF-503390], the Selectivity is given as 45 31.

On to `CC[C@H]1CCCCN1C(=O)C[C@H](Nc1nc(Cc2ccc(F)cc2)no1)C(=O)N[C@@H](C)c1nc2c(F)cccc2[nH]1` [CF-503419], for which the Selectivity is recorded as 5 4.

On to `CC[C@H]1CCCCN1C(=O)C[C@H](NC(=O)N(C)Cc1ccccc1)C(=O)N[C@@H](C)c1nc2c(F)cccc2[nH]1` [CF-503451], for which the Selectivity is reported as 19 20.

On to `CC[C@H]1CCCCN1C(=O)C[C@H](NC(=O)C1CC2(CCC2)C1)C(=O)N[C@@H](C)c1nc2c(F)cccc2[nH]1` [CF-503458], for which the Selectivity was 1920 112.

Take `CC(NC(=O)C(CC(=O)N1CCCCC1C)NC(=O)C1CC2(CCC2)C1)c1nc2c(F)cccc2[nH]1` (stereo not shown) [CF-503459]: the Selectivity is recorded as 2107 105.

On to `CC(NC(=O)C(CC(=O)N1CCCCC1C)NC(=O)N(C)Cc1ccccc1)c1nc2c(F)cccc2[nH]1` (stereo not shown) [CF-503460], for which the Selectivity was 63.

Turning to `CC(NC(=O)C(CC(=O)N1CCCCC1C)NC(=O)OCc1ccccc1)c1nc2c(F)cccc2[nH]1` (stereo not shown) [CF-503462], the Selectivity was determined as 123.

In the case of `CC(C)COC(=O)NC(CC(=O)N1CCCCC1C)C(=O)NC(C)c1nc2c(F)cccc2[nH]1` (stereo not shown) [CF-503463], the Selectivity was 2.

For `CC[C@H]1CCCCN1C(=O)C[C@H](NC(=O)C1CC(C)(C)C1)C(=O)N[C@@H](C)c1nc2c(F)cccc2[nH]1` [CF-503464], the Selectivity is given as 441 66.

In the case of `CC(NC(=O)C(CC(=O)N1CCCCC1C)NC(=O)C1CC(C)(C)C1)c1nc(-c2ccc(F)cc2F)c[nH]1` (stereo not shown) [CF-503474], the Selectivity is reported as 404.

For the compound `CC(NC(=O)C(CC(=O)N1CCCCC1C)NC(=O)C1CC1C(C)C)c1nc(-c2ccc(F)cc2F)c[nH]1` (stereo not shown) [CF-503475], the Selectivity is given as 140.

On to `CC[C@H]1CCCCN1C(=O)C[C@H](NC(=O)C1CC1C(C)C)C(=O)N[C@@H](C)c1nc2c(F)cccc2[nH]1` (stereo partly shown) [CF-530373], for which the Selectivity is 3427 100 82.

(Values after US11203613B2, “Peptidomimetic proteasome inhibitors” (CORNELL UNIVERSITY, priority 2017, dated 2021).)
